For the assay, the target named is Replicase polyprotein 1ab (Severe acute respiratory syndrome-related coronavirus, UniProt P0C6X7).

The compound `O=C1c2cccc(O)c2C(=O)c2c(O)cc(CO)cc21` [ALOE-EMODIN] came in with an IC50 of 132 µM.

These data come from ChEMBL document CHEMBL2390950, “Dieckol, a SARS-CoV 3CL(pro) inhibitor, isolated from the edible brown algae Ecklonia cava” (Bioorg Med Chem, 2013).
